# Fold change is the IC50 on the isolate divided by the IC50 on a reference virus; 1 = unchanged, higher = more resistant. Changes are given against the subtype B consensus. No active / inactive call. The values were gathered from many studies (numbered anew) with different assays, which the source does not name. Most viruses are clinical isolates; some are laboratory strains or clones with known resistance changes. Isolates with mixed residues are left out; stretches that were not sequenced show no change. Round top values that many isolates share are read here as limits; other very high values and 0.1 may be limits too. The protease changes I3V and N37S, insertions and deletions cannot be read from the source.
# Assays:
# Experiment in all cases: fold change of IC50 against reference virus; higher = more resistant; Cell-culture drug susceptibility tests of virus bearing the protease of each isolate, gathered from many studies.
# tipranavir = compound: CCC[C@@]1(CCc2ccccc2)CC(O)=C([C@H](CC)c2cccc(NS(=O)(=O)c3ccc(C(F)(F)F)cn3)c2)C(=O)O1 [tipranavir]
# indinavir = compound: CC(C)(C)NC(=O)[C@@H]1CN(Cc2cccnc2)CCN1C[C@@H](O)C[C@@H](Cc1ccccc1)C(=O)N[C@H]1c2ccccc2C[C@H]1O [indinavir]
# saquinavir = compound: CC(C)(C)NC(=O)[C@@H]1C[C@@H]2CCCC[C@@H]2CN1C[C@@H](O)[C@H](Cc1ccccc1)NC(=O)[C@H](CC(N)=O)NC(=O)c1ccc2ccccc2n1 [saquinavir]
# atazanavir = compound: COC(=O)N[C@H](C(=O)N[C@@H](Cc1ccccc1)[C@@H](O)CN(Cc1ccc(-c2ccccn2)cc1)NC(=O)[C@@H](NC(=O)OC)C(C)(C)C)C(C)(C)C [atazanavir]
# nelfinavir = compound: Cc1c(O)cccc1C(=O)N[C@@H](CSc1ccccc1)[C@H](O)CN1C[C@H]2CCCC[C@H]2C[C@H]1C(=O)NC(C)(C)C [nelfinavir]
# lopinavir = compound: Cc1cccc(C)c1OCC(=O)N[C@@H](Cc1ccccc1)[C@@H](O)C[C@H](Cc1ccccc1)NC(=O)[C@H](C(C)C)N1CCCNC1=O [lopinavir]
# ritonavir = compound: CC(C)c1nc(CN(C)C(=O)N[C@H](C(=O)N[C@@H](Cc2ccccc2)C[C@H](O)[C@H](Cc2ccccc2)NC(=O)OCc2cncs2)C(C)C)cs1 [ritonavir]
test system,measurement,setting,value
"HIV-1 isolate 1085 (protease changes: L10I I15L L19I E35D M36I R41K M46I K55R I62V L63P A71T I72T I84V I85V L90M, study 15)",fold change of IC50 against reference virus,tipranavir,17
same,fold change of IC50 against reference virus,indinavir,9.2
same,fold change of IC50 against reference virus,saquinavir,18
same,fold change of IC50 against reference virus,atazanavir,6.8
same,fold change of IC50 against reference virus,nelfinavir,21
same,fold change of IC50 against reference virus,lopinavir,4.1
"HIV-1 isolate 866 (protease changes: L10I I13V I15V K20R L33F E34N E35D M36I K43T I47V I50L F53L Q58E I62V L63P I66F A71V V77I V82A I84V L89V, study 46)",fold change of IC50 against reference virus,tipranavir,45
same,fold change of IC50 against reference virus,indinavir,18
same,fold change of IC50 against reference virus,saquinavir,100
same,fold change of IC50 against reference virus,atazanavir,40
same,fold change of IC50 against reference virus,nelfinavir,4.4
same,fold change of IC50 against reference virus,lopinavir,81
"HIV-1 isolate 673 (protease changes: L10I V32I L33F K43T M46I I54M D60E L63P I64M A71V V82A L89M L90M I93L, study 15)",fold change of IC50 against reference virus,ritonavir,69
same,fold change of IC50 against reference virus,tipranavir,4.4
same,fold change of IC50 against reference virus,saquinavir,3.5
same,fold change of IC50 against reference virus,atazanavir,69
same,fold change of IC50 against reference virus,nelfinavir,47
same,fold change of IC50 against reference virus,lopinavir,33
"HIV-1 isolate 918 (protease changes: L10I I13V K20I L33V E35D M36I N37T M46I I54V Q58E I62V L63P A71V T74P V82L L90M I93L, study 64)",fold change of IC50 against reference virus,ritonavir,84
same,fold change of IC50 against reference virus,tipranavir,≥ 800
same,fold change of IC50 against reference virus,saquinavir,7.4
same,fold change of IC50 against reference virus,atazanavir,107
same,fold change of IC50 against reference virus,nelfinavir,93
same,fold change of IC50 against reference virus,lopinavir,36
"HIV-1 isolate 1184 (protease changes: L10I I15V G16A K20R V32I M36I M46I F53L I54V K55R Q58E L63P A71V I72V L76V V82A L90M I93L, study 64)",fold change of IC50 against reference virus,tipranavir,1.6
same,fold change of IC50 against reference virus,indinavir,56
same,fold change of IC50 against reference virus,saquinavir,30
same,fold change of IC50 against reference virus,atazanavir,39
same,fold change of IC50 against reference virus,nelfinavir,119
same,fold change of IC50 against reference virus,lopinavir,189
"HIV-1 isolate 859 (protease changes: L10I I13V I15V L19V L24I V32I L33F K43E M46L I54L D60E L63P A71V I72V V82A I84V, study 64)",fold change of IC50 against reference virus,ritonavir,≥ 800
same,fold change of IC50 against reference virus,tipranavir,2.5
same,fold change of IC50 against reference virus,saquinavir,7.7
same,fold change of IC50 against reference virus,atazanavir,86
same,fold change of IC50 against reference virus,nelfinavir,37
same,fold change of IC50 against reference virus,lopinavir,49
"HIV-1 isolate 692 (protease changes: L10F I13V D30N K45I I50L L63P A71I V77I N88D, study 46)",fold change of IC50 against reference virus,tipranavir,0.4
same,fold change of IC50 against reference virus,indinavir,1.1
same,fold change of IC50 against reference virus,saquinavir,6.6
same,fold change of IC50 against reference virus,atazanavir,35
same,fold change of IC50 against reference virus,nelfinavir,196
same,fold change of IC50 against reference virus,lopinavir,0.9
"HIV-1 isolate 584 (protease changes: I13V K20R V32I L33F E35D M36I R41K K43T I47V I54M I62V L63V A71V I72T G73S T74P V82L L89V I93L, study 46)",fold change of IC50 against reference virus,tipranavir,23
same,fold change of IC50 against reference virus,indinavir,48
same,fold change of IC50 against reference virus,saquinavir,3.3
same,fold change of IC50 against reference virus,atazanavir,40
same,fold change of IC50 against reference virus,nelfinavir,23
same,fold change of IC50 against reference virus,lopinavir,155
"HIV-1 isolate 980 (protease changes: L10I V11L I13V K14R A22V E35D M36I N37D G48M F53L I54V I62V L63P A71V T74S V82A I84V T91S Q92K, study 64)",fold change of IC50 against reference virus,ritonavir,≥ 800
same,fold change of IC50 against reference virus,tipranavir,2
same,fold change of IC50 against reference virus,indinavir,76
same,fold change of IC50 against reference virus,atazanavir,≥ 700
same,fold change of IC50 against reference virus,lopinavir,130
"HIV-1 isolate 694 (protease changes: L10F I13V K20R D30N L33F M36I N37D R41K M46I I54L L63P I64L I66V A71T I72T I84V N88D L90M I93L C95F, study 64)",fold change of IC50 against reference virus,ritonavir,107
same,fold change of IC50 against reference virus,tipranavir,0.9
same,fold change of IC50 against reference virus,atazanavir,178
same,fold change of IC50 against reference virus,lopinavir,78
"HIV-1 isolate 735 (protease changes: L10I E35D M36I R41K I62V L63P I64M A71V I84V L90M I93L, study 15)",fold change of IC50 against reference virus,tipranavir,35
same,fold change of IC50 against reference virus,indinavir,6.5
same,fold change of IC50 against reference virus,saquinavir,23
same,fold change of IC50 against reference virus,atazanavir,3.2
same,fold change of IC50 against reference virus,nelfinavir,17
same,fold change of IC50 against reference virus,lopinavir,4.3
"HIV-1 isolate 193 (protease changes: L10I I15V L23I M46L F53L I54V I62V L63V H69R A71V I72K L76V V82A L89M I93L, study 64)",fold change of IC50 against reference virus,ritonavir,64
same,fold change of IC50 against reference virus,tipranavir,0.6
same,fold change of IC50 against reference virus,saquinavir,6.3
same,fold change of IC50 against reference virus,atazanavir,2.4
same,fold change of IC50 against reference virus,nelfinavir,17
same,fold change of IC50 against reference virus,lopinavir,143
"HIV-1 isolate 1183 (protease changes: L10F L33F E35D M36I I54L I62V L63P A71V G73S I84V L90M, study 64)",fold change of IC50 against reference virus,ritonavir,102
same,fold change of IC50 against reference virus,tipranavir,2.1
same,fold change of IC50 against reference virus,atazanavir,159
same,fold change of IC50 against reference virus,nelfinavir,66
same,fold change of IC50 against reference virus,lopinavir,55
"HIV-1 isolate 1373 (protease changes: L10F I13V L19I K20T V32I E35N M36I M46I G48Q I54L L63P C67E A71V T74S L76V I84V L89V L90M T91S I93L, study 64)",fold change of IC50 against reference virus,ritonavir,≥ 800
same,fold change of IC50 against reference virus,tipranavir,0.9
same,fold change of IC50 against reference virus,indinavir,182
same,fold change of IC50 against reference virus,atazanavir,≥ 700
same,fold change of IC50 against reference virus,lopinavir,≥ 500
"HIV-1 isolate 71 (protease changes: L10I D30N L33F M46L F53L I54L Q58E L63P A71T G73S V77I N88D, study 64)",fold change of IC50 against reference virus,ritonavir,4.4
same,fold change of IC50 against reference virus,tipranavir,0.2
same,fold change of IC50 against reference virus,indinavir,1.4
same,fold change of IC50 against reference virus,saquinavir,21
same,fold change of IC50 against reference virus,atazanavir,35
same,fold change of IC50 against reference virus,lopinavir,4.6
"HIV-1 isolate 765 (protease changes: L10I M46I I62V L63P A71V T74P V77I I84V L90M Q92R I93L, study 64)",fold change of IC50 against reference virus,ritonavir,27
same,fold change of IC50 against reference virus,tipranavir,1.9
same,fold change of IC50 against reference virus,saquinavir,38
same,fold change of IC50 against reference virus,atazanavir,18
same,fold change of IC50 against reference virus,nelfinavir,25
same,fold change of IC50 against reference virus,lopinavir,23
